Compound potency records, mixed from different reports. Data source: NIAID ChemDB in PubChem.

Shared fields: tests in culture; organism: HIV-1; read by: MTT; measure: EC50

ECn is the concentration giving n% inhibition of infection, replication or growth. Blank or dashed fields: not listed here. Neighbouring rows are from separate reports.

Cc1cc(-c2ccc(C#N)cc2)cc(C)c1Oc1ccnc(S(=O)(=O)CC(=O)Nc2ccc(F)cc2)n1 ; changes: E138K ; cells: MT-4 ; strain or isolate: IIIB ; value: 0.112 µM
Cc1cn([C@H]2C=C[C@@H](CO)O2)c(=O)n(C)c1=O ; cells: MT-4 ; strain or isolate: IIIB ; value: >359 µM
COc1ccc(CCNc2nc(NC(=O)Nc3cccc(Cl)c3)nc(Oc3cc(=O)oc4ccccc34)n2)cc1OC ; cells: MT-4 ; strain or isolate: IIIB ; value: >25.23 µg/mL
O=C1Nc2ccc(Cl)cc2[C@@](C#CC2CC2)(C(F)(F)F)O1 ; cells: MT-4 ; strain or isolate: IIIB ; value: >46 µM
CCOC(=O)CNc1nc(NC(=O)Nc2ccc(OCC)cc2)nc(Oc2cc(=O)oc3ccccc23)n1 ; cells: MT-4 ; strain or isolate: IIIB ; value: >125 µg/mL
CCc1c(NC)nc(Nc2ccc(C#N)cc2)nc1Oc1ccc2cc(C#N)ccc2c1 ; changes: WT ; cells: MT-4 ; strain or isolate: IIIB ; value: 0.006 µM
NC(=O)c1coc(Cc2ccccc2)cc1=O ; cells: C8166 ; value: >100 µM
c1ccc(COC[C@H]2O[C@H](O[C@H]3[C@H](OCc4ccccc4)[C@H](OCc4ccccc4)[C@@H]4OC[C@H]3O4)[C@H](OCc3ccccc3)[C@@H](OCc3ccccc3)[C@H]2OCc2ccccc2)cc1 ; strain or isolate: IIIB ; value: 0.23 µg/mL
O=C(O)CC1Nc2ccccc2S(=O)(=O)n2cccc21 ; cells: MT-4 ; strain or isolate: IIIB ; value: >342 µM
CCc1c(Cl)nc(Nc2ccc(C#N)cc2)nc1Oc1ccc2cc(C#N)ccc2c1 ; changes: WT ; cells: MT-4 ; strain or isolate: IIIB ; value: 0.667 µM
Cc1cc(/C=C/C#N)cc(C)c1Oc1nc(NC2CCN(Cc3ccccc3Cl)CC2)nc2ccsc12 ; changes: NNRTI-resistant (RT E138K) ; cells: MT-4 ; strain or isolate: IIIB ; value: 0.158 µM
CCn1c(C)c(C)c2c(-c3ccc(F)cc3)c(C(OC(C)(C)C)C(=O)O)c(C)nc21 ; cells: MT-4 ; strain or isolate: IIIB ; value: 0.1164 µM
C#Cc1ccc(Nc2nccc(Oc3c(C)cc(-c4cn(Cc5ccc(C(=O)OC)cc5)nn4)cc3C)n2)cc1 ; cells: MT-4 ; strain or isolate: IIIB ; value: 0.064 µM
O=C(OCC1Nc2ccccc2S(=O)(=O)n2cccc21)c1ccc(Cl)cc1 ; cells: MT-4 ; strain or isolate: IIIB ; value: 99 µM
CCn1c(=O)c(C)cn([C@H]2C[C@H](N=[N+]=[N-])[C@@H](CO)O2)c1=O ; cells: MT-4 ; strain or isolate: IIIB ; value: 16 µM
NC(=O)CC1Nc2ccccc2S(=O)(=O)n2cccc21 ; cells: MT-4 ; strain or isolate: IIIB ; value: >206 µM
CCc1c(Cl)nc(Nc2ccc(C#N)cc2)nc1Oc1ccc2ccccc2c1Cl ; changes: K103N + Y181C ; cells: MT-4 ; strain or isolate: IIIB ; value: 5.15 µM
Fc1ccccc1NC(=S)NCc1ccco1 ; cells: MT-4 ; strain or isolate: IIIB ; value: >100 µM
O=C1CC2CCC1C1C(=O)N(CCCCN3CCN(c4ccccc4O)CC3)C(=O)C21 ; cells: MT-4 ; value: >100 µM
CCOC(=O)CNc1nc(Nc2ccc(Cl)cc2)nc(Oc2cc(=O)oc3ccccc23)n1 ; changes: RT-resistant RES056 (K103N + Y181C) ; strain or isolate: RES056 ; value: >45.6 µg/mL
Cc1cc(-c2ccc(C#N)cc2)cc(C)c1Oc1ccnc(S(=O)(=O)CC(=O)Nc2ccc(Cl)cc2)n1 ; changes: K103N ; cells: MT-4 ; strain or isolate: IIIB ; value: 0.056 µM
CC(C)CN(C[C@@H](O)[C@H](Cc1ccccc1)NC(=O)O[C@H]1CO[C@@H]2OCC[C@@H]21)S(=O)(=O)c1ccc2c(C=NCCN(C)C)c(O)[nH]c2c1 ; value: >0.4 µM
Cc1cn([C@H]2C[C@H](N=[N+]=[N-])[C@@H](CO)O2)c(=O)n(CC2CO2)c1=O ; cells: MT-4 ; strain or isolate: IIIB ; value: >359 µM
CC(C)CN(C[C@@H](O)[C@H](Cc1ccccc1)NC(=O)O[C@H]1CO[C@H]2OCC[C@H]21)S(=O)(=O)c1ccc2[nH]c(O)c(C=NCc3nc4ccccc4[nH]3)c2c1 ; changes: L10 L24 M36 I54 L63 A71 V82 I84 ; cells: MT-4 ; value: >0.4 µM
Cc1cc(C#N)cc(C)c1Oc1nc(Nc2ccc(C#N)cc2)ncc1SCC(=O)NCc1ccc(O)cc1 ; cells: MT-4 ; strain or isolate: IIIB ; value: 0.0078 µM
C[C@H](CSCC(=O)O)C(=O)N1CCC[C@@H]1C(=O)O ; cells: MT-4 ; strain or isolate: IIIB ; value: >125 µg/mL
N#Cc1ccc(Nc2nccc(Oc3cc4ccc(Br)cc4cc3Br)n2)cc1 ; changes: WT ; cells: MT-4 ; strain or isolate: IIIB ; value: 0.005 µM
C[C@H](CS)C(=O)N1CCC[C@@H]1c1nc2ncncc2[nH]1 ; cells: MT-4 ; strain or isolate: IIIB ; value: >59.05 µg/mL
Cc1nc2c(c(C)c(C)n2Cc2ccc(F)cc2)c(-c2ccc(Cl)cc2)c1C(OC(C)(C)C)C(=O)O ; cells: MT-4 ; strain or isolate: IIIB ; value: 0.147 µM
COc1ccc(-c2nnsc2SCC(=O)Nc2ccccc2F)cc1 ; cells: MT-4 ; strain or isolate: IIIB ; value: >333 µM
C#Cc1ccc(Nc2nccc(Oc3c(C)cc(-c4cn(CCc5cccs5)nn4)cc3C)n2)cc1 ; changes: K103N ; cells: MT-4 ; strain or isolate: IIIB ; value: 0.37 µM
Cc1cc(C#N)cc(C)c1Oc1nc(NC2CCC(NCc3ccc(S(C)(=O)=O)cc3)CC2)nc2ccsc12 ; changes: NNRTI-resistant (RT K103N) ; cells: MT-4 ; strain or isolate: IIIB ; value: 0.355 µM
Cc1cc(C#N)cc(C)c1Oc1nc(Nc2ccc(C#N)cc2)ncc1SCC(=O)NCCN1CCOCC1 ; changes: F227L V106A ; cells: MT-4 ; value: 0.2216 µM
CCOC(=O)CNc1nc(Nc2ccc(C)cc2)nc(Oc2cc(=O)oc3ccccc23)n1 ; changes: RT-resistant RES056 (K103N + Y181C) ; strain or isolate: RES056 ; value: >45.53 µg/mL
C[C@H](CS)C(=O)N1CCC[C@@H]1c1nc2c(Cl)cccc2[nH]1 ; cells: MT-4 ; strain or isolate: IIIB ; value: >28.17 µg/mL
COC(=O)CC1Nc2ccccc2S(=O)(=O)n2cccc21 ; cells: MT-4 ; strain or isolate: IIIB ; value: 19.5 µM
COc1ccc(CCNc2nc(NC(=S)Nc3cccc(C)c3)nc(Oc3cc(=O)oc4ccccc34)n2)cc1OC ; cells: MT-4 ; strain or isolate: IIIB ; value: >61.2 µg/mL
CN1CC(=O)N2c3ccccc3S(=O)(=O)n3cccc3C2C1=O ; cells: MT-4 ; strain or isolate: IIIB ; value: >302 µM
CC(C)=CCn1c(=O)c(C)cn([C@H]2C[C@H](N=[N+]=[N-])[C@@H](CO)O2)c1=O ; cells: MT-4 ; strain or isolate: IIIB ; value: 10 µM
CNc1cc(Oc2ccc3cc(Br)ccc3c2)nc(Nc2ccc(C#N)cc2)n1 ; changes: K103N + Y181C ; cells: MT-4 ; strain or isolate: IIIB ; value: >182 µM
Cc1cc(C#N)cc(C)c1Oc1nc(Nc2ccc(C#N)cc2)ncc1SCC(=O)NC1CCN(C(=O)OC(C)(C)C)CC1 ; changes: Y181C ; cells: MT-4 ; value: 0.0517 µM
Cc1cc(/C=C/C#N)cc(C)c1Oc1nc(NC2CCN(Cc3ccccn3)CC2)nc2ccsc12 ; changes: NNRTI-resistant (RT Y188L) ; cells: MT-4 ; strain or isolate: IIIB ; value: 0.0417 µM
C#CCNC(=O)CSc1cnc(Nc2ccc(C#N)cc2)nc1Oc1c(C)cc(C#N)cc1C ; changes: F227L V106A ; cells: MT-4 ; value: 0.126 µM
CCOC(=O)c1ccc(CN2CCC(Nc3nc(Oc4c(C)cc(/C=C/C#N)cc4C)c4sccc4n3)CC2)cc1 ; changes: NNRTI-resistant (RT Y188L) ; cells: MT-4 ; strain or isolate: IIIB ; value: 0.163 µM
Cc1cc(C#N)cc(C)c1Oc1nc(Nc2ccc(C#N)cc2)ncc1SCC(=O)NC1CC1 ; changes: Y188L ; cells: MT-4 ; value: 0.0292 µM
Cc1cc(/C=C/C#N)cc(C)c1Oc1nc(NC2CCN(Cc3cccc(F)c3)CC2)nc2ccsc12 ; cells: MT-4 ; strain or isolate: RES056 ; value: 0.126 µM
O=C1CC2CCC1C1C(=O)N(CCCCN3CCN(c4ccccc4)CC3)C(=O)C21 ; cells: MT-4 ; value: >100 µM
Nc1ccn([C@H]2CC[C@@H](CO)O2)c(=O)n1 ; changes: V106A ; cells: MT-4 ; value: 0.57 µM
C[C@@H](CC(=O)NC(=O)c1c[nH]c(Cc2ccccc2)cc1=O)C(=O)O ; cells: C8166 ; value: >100 µM
Cc1cc(-c2ccc(C#N)cc2)cc(C)c1Oc1ccnc(S(=O)(=O)CC(=O)NC(C)c2ccc(Br)cc2)n1 ; cells: MT-4 ; strain or isolate: IIIB ; value: >3.21 µM
O=C1CC2CCC1C1C(=O)N(CC(O)CN3CCN(c4ccccn4)CC3)C(=O)C21 ; cells: MT-4 ; value: >100 µM
Cc1ccc(CN2CCC(Nc3nc(Oc4c(C)cc(/C=C/C#N)cc4C)c4sccc4n3)CC2)cc1 ; changes: NNRTI-resistant (RT E138K) ; cells: MT-4 ; strain or isolate: IIIB ; value: 0.0323 µM
Cc1cn([C@H]2C[C@H](N=[N+]=[N-])[C@@H](CO)O2)c(=O)n(C)c1=O ; cells: MT-4 ; strain or isolate: IIIB ; value: 6.6 µM
C=CCn1c(C)c(C)c2c(-c3ccc(Cl)cc3)c(C(OC(C)(C)C)C(=O)O)c(C)nc21 ; cells: MT-4 ; strain or isolate: IIIB ; value: 0.0317 µM
C[C@H](CS)C(=O)N1CCC[C@@H]1c1nc2ccccc2s1 ; cells: MT-4 ; strain or isolate: IIIB ; value: >15.8 µg/mL
CCn1c(C)c(C)c2c(-c3ccc(Cl)cc3)c(C(OC(C)(C)C)C(=O)O)c(C)nc21 ; cells: MT-4 ; strain or isolate: IIIB ; value: 0.4 µM
Cc1ccc(NC(=S)NCc2ccco2)cc1Cl ; cells: MT-4 ; strain or isolate: IIIB ; value: >100 µM
Cc1cc(C#N)cc(C)c1Oc1nc(Nc2ccc(C#N)cc2)ncc1SCC(=O)Nc1ccc(S(C)(=O)=O)cc1 ; changes: Y181C ; cells: MT-4 ; value: 0.093 µM
Cc1cc(/C=C/C#N)cc(C)c1Oc1ccnc(S(=O)(=O)CC(=O)NCCc2ccc(Cl)cc2)n1 ; cells: MT-4 ; strain or isolate: IIIB ; value: 0.49 µM
Cc1cc2ccccc2cc1Oc1ccnc(Nc2ccc(C#N)cc2)n1 ; changes: WT ; cells: MT-4 ; strain or isolate: IIIB ; value: 0.002 µM
Cc1nc2c(c(C)c(C)n2CC(C)C)c(-c2ccc(Cl)cc2)c1C(OC(C)(C)C)C(=O)O ; cells: MT-4 ; strain or isolate: IIIB ; value: 0.107 µM
CC1CCN(CC(O)CN2C(=O)C3C4CCC(C(=O)C4)C3C2=O)CC1 ; cells: MT-4 ; value: >100 µM
C=CCNC(=O)CSc1cnc(Nc2ccc(C#N)cc2)nc1Oc1c(C)cc(C#N)cc1C ; changes: L100I ; cells: MT-4 ; value: 0.023 µM
COc1ccc(Cn2c(C)c(C)c3c(-c4ccc(Cl)cc4)c(C(OC(C)(C)C)C(=O)O)c(C)nc32)cc1 ; cells: MT-4 ; strain or isolate: IIIB ; value: 0.134 µM
COc1ccccc1N1CCN(CC(O)CN2C(=O)C3C4CCC(C(=O)C4)C3C2=O)CC1 ; cells: MT-4 ; value: >100 µM
S=C(NCc1ccco1)Nc1ccc(Cl)cc1 ; cells: MT-4 ; strain or isolate: IIIB ; value: >36.7 µM
CC(C)(C)NCC(O)CN1C(=O)C2C3CCC(C(=O)C3)C2C1=O ; cells: MT-4 ; value: >100 µM
Cc1cc(C#N)cc(C)c1Oc1nc(Nc2ccc(C#N)cc2)ncc1SCC(=O)NCC1CCCO1 ; changes: K103N ; cells: MT-4 ; value: 0.0046 µM
S=C(Nc1ccc(Cl)c(Cl)c1)NC1CCN(Cc2ccccc2)CC1 ; cells: MT-4 ; strain or isolate: IIIB ; value: >7.3 µM

Repeating the first 8 entries:

structure,changes,cells,strain or isolate,value
Cc1cc(-c2ccc(C#N)cc2)cc(C)c1Oc1ccnc(S(=O)(=O)CC(=O)Nc2ccc(F)cc2)n1,E138K,MT-4,IIIB,0.112 µM
Cc1cn([C@H]2C=C[C@@H](CO)O2)c(=O)n(C)c1=O,,MT-4,IIIB,>359 µM
COc1ccc(CCNc2nc(NC(=O)Nc3cccc(Cl)c3)nc(Oc3cc(=O)oc4ccccc34)n2)cc1OC,,MT-4,IIIB,>25.23 µg/mL
O=C1Nc2ccc(Cl)cc2[C@@](C#CC2CC2)(C(F)(F)F)O1,,MT-4,IIIB,>46 µM
CCOC(=O)CNc1nc(NC(=O)Nc2ccc(OCC)cc2)nc(Oc2cc(=O)oc3ccccc23)n1,,MT-4,IIIB,>125 µg/mL
CCc1c(NC)nc(Nc2ccc(C#N)cc2)nc1Oc1ccc2cc(C#N)ccc2c1,WT,MT-4,IIIB,0.006 µM
NC(=O)c1coc(Cc2ccccc2)cc1=O,,C8166,,>100 µM
c1ccc(COC[C@H]2O[C@H](O[C@H]3[C@H](OCc4ccccc4)[C@H](OCc4ccccc4)[C@@H]4OC[C@H]3O4)[C@H](OCc3ccccc3)[C@@H](OCc3ccccc3)[C@H]2OCc2ccccc2)cc1,,,IIIB,0.23 µg/mL